Compound potency records, mixed from different reports. Data source: NIAID ChemDB in PubChem.

Common to all: tests in culture; organism: HIV-1; cells: MAGI; read-out: EC50

ECn is the concentration giving n% inhibition of infection, replication or growth. Blank or dashed fields: not listed here. Lines come from different laboratories, so protocols vary.

SMILES	strain or isolate	mutations	method	value
O=c1[nH]c(=S)ccn1[C@@H]1O[C@H](COP(=O)(O)O)[C@@H](O)[C@H]1O	IIIB		β-galactosidase / visual reading	4.7 µM
O=C(O)[C@@H](C1CCCCC1)N1C[C@H](CN2CCC(c3ncc(Cc4ccccc4)s3)CC2)[C@@H](c2ccccc2)C1			β-galactosidase	<0.033 µM
Cc1cn([C@H]2C[C@H](F)[C@@H](CO)O2)c(=O)[nH]c1=O	IIIB		single cycle	<0.1 µg/mL
CC(NC(=O)CCCc1nc(-c2ccccn2)no1)c1nc2ccccc2s1				>100 µM
O=C(O)C(=O)/C=C(\O)c1cc(Cc2ccc(F)cc2)cn(Cc2ccccc2F)c1=O				0.7 µM
O=S(=O)(O)c1ccc(-c2c3nc(c(-c4ccc(S(=O)(=O)O)cc4)c4ccc([n-]4)c(-c4ccc(S(=O)(=O)O)cc4)c4nc(c(-c5ccc(S(=O)(=O)O)cc5)c5ccc2[n-]5)C=C4)C=C3)cc1.[Gd+3]	IIIB		β-galactosidase	<50 µg/mL
CC(C)c1ccc(CS(=O)(=O)c2cccc[n+]2[O-])cc1	IIIB		β-galactosidase	4 µg/mL
O=C(O)C(=O)/C=C(\O)c1cc(Cc2ccc(F)c(Cl)c2)cn(Cc2ccc(F)cc2F)c1=O				1.4 µM
O=S(=O)(O)c1ccc(-c2c3nc(c(-c4ccc(S(=O)(=O)O)cc4)c4ccc([nH]4)c(-c4ccc(S(=O)(=O)O)cc4)c4nc(c(-c5ccc(S(=O)(=O)O)cc5)c5ccc2[nH]5)C=C4)C=C3)cc1	IIIB		β-galactosidase	<50 µg/mL
O=S(=O)(Cc1c(Cl)c(Cl)c(Cl)c(Cl)c1Cl)c1cccc[n+]1[O-]	IIIB		β-galactosidase	0.5 µg/mL
Cc1ccc(NC(=O)NCCSCc2ccc(CNC(C)C)o2)cc1Cl			RT activity	>100 µM
O=C(O)[C@@H](C1CCCCC1)N1C[C@H](CN2CCC(c3cnc(-c4ccccc4)[nH]3)CC2)[C@@H](c2ccccc2)C1			β-galactosidase	<0.033 µM
O=C(O)C(=O)/C=C(\O)c1cc(Cc2ccc(F)cc2F)cn(Cc2ccc(F)cc2F)c1=O				0.3 µM
N#C[C@]1(CO)O[C@@H](n2cnc3c(=O)[nH]cnc32)C[C@@H]1O	3TC-resistant (RT M184V)	RT-M184V	β-galactosidase	6.06 µM
Cc1ccc2cc(C#N)c(SCC(=O)Nc3nccs3)nc2c1				>100 µM
N#C[C@]1(CO)O[C@@H](n2cnc3c(N)ncnc32)C[C@@H]1O	HXB2		β-galactosidase	0.043 µM
O=S(=O)(O)c1ccc(-c2c3nc(c(-c4ccc(S(=O)(=O)O)cc4)c4ccc([nH]4)c(-c4ccc(S(=O)(=O)O)cc4)c4nc(c(-c5ccccc5)c5ccc2[nH]5)C=C4)C=C3)cc1	IIIB		β-galactosidase	0.5 µg/mL
O=C(O)[C@@H](C1CCCCC1)N1C[C@H](CN2CCC(c3csc(-c4ccccc4)n3)CC2)[C@@H](c2ccccc2)C1			β-galactosidase	<0.1 µM
O=C(O)C(=O)/C=C(\O)c1cc(Cc2ccccc2)cn(Cc2c(F)cccc2F)c1=O				1.5 µM
O=S(=O)(O)c1ccc(-c2c3nc(c(-c4ccc(S(=O)(=O)O)cc4)c4ccc([n-]4)c(-c4ccc(S(=O)(=O)O)cc4)c4nc(c(-c5ccc(S(=O)(=O)O)cc5)c5ccc2[n-]5)C=C4)C=C3)cc1.[Gd+3]	IIIB		β-galactosidase	<50 µg/mL

The last 3 rows once more:

SMILES | strain or isolate | mutations | method | value
O=C(O)[C@@H](C1CCCCC1)N1C[C@H](CN2CCC(c3csc(-c4ccccc4)n3)CC2)[C@@H](c2ccccc2)C1 |  |  | β-galactosidase | <0.1 µM
O=C(O)C(=O)/C=C(\O)c1cc(Cc2ccccc2)cn(Cc2c(F)cccc2F)c1=O |  |  |  | 1.5 µM
O=S(=O)(O)c1ccc(-c2c3nc(c(-c4ccc(S(=O)(=O)O)cc4)c4ccc([n-]4)c(-c4ccc(S(=O)(=O)O)cc4)c4nc(c(-c5ccc(S(=O)(=O)O)cc5)c5ccc2[n-]5)C=C4)C=C3)cc1.[Gd+3] | IIIB |  | β-galactosidase | <50 µg/mL